Assay [1] addresses NS5B from the BK strain (genotype 1b) (Hepatitis C virus genotype 1b, UniProt P26663). The assay can be described thus: Hepatitis C polymerase (NS5B, BK strain) inhibition, radioactive filter assay. The following applies: read-out: BK IC50; NS5B BK strain (genotype 1b). From the text:
(§1) The ability of the compounds of the present invention to inhibit Hepatitis C Polymerase was established by the following experimental procedure:
NS5B from the BK strain (genotype 1b) is expressed in E coli as a protein in which the 21 C-terminal amino acids are replaced with a short linker and a hexahistidine tag (GSHHHHHH). The purified protein is mixed with radioactive nucleotides and allowed to replicate a heteropolymeric RNA substrate, primed by an endogenous short hairpin, resulting in an approximately 760 nt product. The radioactive product is captured on a filter and quantitated after removal of the unincorporated nucleotides.
(§2) • 0.5M Na Phosphate buffer. Per liter, weigh 134 gr Na2HPO4.7H2O, add water to 900 ml. Adjust pH to 7.0 with phosphoric acid. Top off with water to 1 L. • Dilute nucleotides 1:1000 to 10 μM (GTP and CTP) or 1:100 to 100 μM (ATP and UTP) into RNase free water. Procedure: • (1) Compounds 10 μl at […] in 15% dimethylsulfoxide (DMSO) When starting from 100 μg/ml compound stock in 1% DMSO: Dispense 5 μl 30% DMSO per well Dispense 5 μl compound (100 μg/ml) per well. When starting from 50 μg/ml compound stock in 15% DMSO: Add 10 μl compound per well.
Add 20 μl enzyme mix into each well of the assay plate. Incubate compound and enzyme at room temperature for 15 minutes • (3) Template mix—prepare ahead […]

Chains of the proteins cited; added tags and fusions are not shown. Residues count along the entry.
UniProt P26663, 2420-2989 limits assumed: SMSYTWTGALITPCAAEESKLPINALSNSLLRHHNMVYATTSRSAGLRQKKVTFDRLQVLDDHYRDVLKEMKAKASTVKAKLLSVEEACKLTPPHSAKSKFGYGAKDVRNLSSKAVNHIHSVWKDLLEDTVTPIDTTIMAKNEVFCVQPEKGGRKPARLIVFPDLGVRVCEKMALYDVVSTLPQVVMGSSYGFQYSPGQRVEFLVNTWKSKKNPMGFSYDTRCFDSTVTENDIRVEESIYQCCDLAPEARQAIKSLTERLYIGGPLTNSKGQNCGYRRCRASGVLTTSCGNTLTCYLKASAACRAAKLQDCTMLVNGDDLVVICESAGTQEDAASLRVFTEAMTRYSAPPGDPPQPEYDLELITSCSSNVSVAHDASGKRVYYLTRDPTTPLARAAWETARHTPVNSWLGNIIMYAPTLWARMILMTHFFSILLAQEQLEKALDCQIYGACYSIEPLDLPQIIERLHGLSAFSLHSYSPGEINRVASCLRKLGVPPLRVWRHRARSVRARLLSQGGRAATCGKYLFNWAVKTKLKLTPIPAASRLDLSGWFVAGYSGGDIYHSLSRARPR
UniProt Q9WMX2, 2420-3010 limits assumed: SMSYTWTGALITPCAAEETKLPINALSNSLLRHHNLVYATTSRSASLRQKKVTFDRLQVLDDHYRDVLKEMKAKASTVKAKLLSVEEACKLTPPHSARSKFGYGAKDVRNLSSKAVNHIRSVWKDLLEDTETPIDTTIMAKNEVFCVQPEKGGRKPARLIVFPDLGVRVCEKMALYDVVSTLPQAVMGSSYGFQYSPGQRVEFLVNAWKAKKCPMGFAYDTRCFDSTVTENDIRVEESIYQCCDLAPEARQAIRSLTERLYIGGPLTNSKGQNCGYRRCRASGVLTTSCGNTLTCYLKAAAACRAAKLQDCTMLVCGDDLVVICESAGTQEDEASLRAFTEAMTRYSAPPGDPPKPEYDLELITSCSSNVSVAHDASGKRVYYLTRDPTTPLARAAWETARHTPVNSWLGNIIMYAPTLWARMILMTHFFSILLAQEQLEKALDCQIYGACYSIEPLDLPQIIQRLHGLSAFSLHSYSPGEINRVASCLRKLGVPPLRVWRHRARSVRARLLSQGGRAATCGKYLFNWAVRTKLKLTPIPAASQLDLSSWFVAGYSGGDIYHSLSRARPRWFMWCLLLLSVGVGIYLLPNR

Assay [2] has as its target BB7 RNA-dependent RNA polymerase hepatitis C virus protein (Con1 HCV sequence) (Hepatitis C virus genotype 1b, UniProt Q9WMX2). The assay can be described thus: Hepatitis C polymerase (BB7) inhibition. The class given is biochemical. The following applies: read-out: BB7 IC50; BB7 (Con1) NS5B.
Description: For purposes of this invention, the term “BB7” denotes an RNA-dependent RNA polymerase hepatitis C virus protein sequence which is derived from HCV replicon. A discussion of BB7 and related technology can be found in Blight, K. et al. (2000) Science 290:1972-1974. BB7 can be licensed from Apath, LLC (893 North Warson Road, Saint Louis Mo. 63141, USA). BB7 is also referred to as Con1 HCV sequence and discussions of Con1 can be found in the following references: Lohmann, V. et al. (1999) Science 285:110-113; Pietschmann, T. et al. (2001) J. Virol. […]:1252-1264; Lohmann, V. et al. (2001) J. Virol. 75:1437-1449.
as §1, §2
Add 20 μl enzyme mix into each well of the assay plate. […]

Bounds are passed on as bounds.

One may read the IC50 as the concentration needed to halve the response being measured. On to `CCCC1(CC(=O)O)OCCc2c1[nH]c1c(C)c(OCCO)cc(C#N)c21` (centres unmarked), for which the IC50 in assay [1] and in assay [2] was less than 500 nM in each case.

Source of the values: US20070219212A1, “Pyranouidole Derivatives and the Use Thereof for the Treatment of Hepatitis C Virus Infection or Disease” (priority 2004, published 2007).
